Results reported in patent US5744470A, “Method for treating insomnia” (Eli Lilly and Company, priority 1997, dated 1998).

Tested on: 5-HT-2 receptor

## Cc1cc2c(s1)Nc1ccccc1N=C2N1CCN(C)CC1 [olanzapine, 2-methyl-4-(4-methyl-1-piperazinyl)-10H-thieno[2,3-b][1,5]benzodiazepine]
  activity at the 5-HT-2 receptor: active
